Drawing on ChEMBL document CHEMBL1142087 (Antimicrob Agents Chemother, 2007), this text covers EC50 for two compounds.

Test [1] relates to Influenza A virus. As to the kind of experiment: Inhibition of influenza A virus (A/duck/Minnesota/1525/1981 (H5N1)) replication in MDCK cells by neutral red uptake assay.
Test [2] has as its system Influenza A virus. Briefly: Inhibition of Influenza A virus (A/gull/Pennsylvania/4175/83 (H5N1)) replication in MDCK cells by neutral red uptake assay.

Take `NC(=O)c1nc(F)cnc1O`: in the test with Influenza A virus [1], it took 4500 nM to reach a half-maximal effect (EC50). Turning to `CCOC(=O)C1=C[C@@H](OC(CC)CC)[C@H](NC(C)=O)[C@@H](N)C1` [OSELTAMIVIR], a half-maximal effect with Influenza A virus [2] (EC50) was put at 280 nM.

What is called EC50 is the concentration giving half of the maximal effect. The low end stands for a more potent agent, the high end for a less potent agent.
